Measured values from several laboratories, pooled; numbers as filed in NIAID ChemDB.

Common to all: target-level tests; species: HIV-1; target: Reverse transcriptase; read-out: IC50

ICn is the concentration giving n% inhibition. Lines come from different laboratories, so protocols vary. An empty or dashed field is not shown.

smiles | changes | strain or isolate | method | result
O=C(CC1(O)C(=O)Nc2ccc(Br)cc21)c1ccccc1 | - | - | RT activity / absorbance | 5.22 µM
C[C@@H](CNC(=S)Nc1ccc(Br)cn1)C1CCCCC1 | - | - | - | 1.2 µM
N#Cc1cc(Cl)cc(Oc2c(Br)ccc(Cn3[nH]c(=O)[nH]c3=O)c2F)c1 | Wild type | - | scintillation proximity / radiometric | 0.007 µM
N#Cc1ccc(Nc2nccc(Oc3cc4c(cc3Br)c(=O)c(C(=O)O)cn4C3CCCCC3)n2)cc1 | - | - | RT activity / fluorescence | 3.44 µM
COC(=O)[C@H]1CC[C@@H](c2ccc[n+](C)c2)N1 | - | - | RT activity / radiometric | >500 µM
O=C(CC1(O)C(=O)Nc2ccc(Cl)cc21)c1ccc(F)cc1 | - | - | RT activity / absorbance | 5.92 µM
COc1ccc2nc(NC(=S)N[C@H](C)c3ccccc3)sc2c1 | - | - | - | >100 µM
CC(C)(C)n1cc(C(=O)O)c(=O)c2cc(Br)c(Oc3ccnc(Nc4ccc(C#N)cc4)n3)cc21 | - | - | RT activity / fluorescence | 10.05 µM
COc1ccccc1C(=O)CC1(O)C(=O)Nc2ccccc21 | - | - | RT activity / absorbance | 14.18 µM
C/C=C/CSc1cc(NC(=S)c2ccsc2C)ccc1Cl | RT-M184V | - | - | 8 µM
N#Cc1cc(Cl)cc(Oc2c(Br)ccc(Cn3c(=O)[nH]c4ccccc43)c2F)c1 | NNRTI-resistant (RT K103N/Y181C) | K103N/Y181C | scintillation proximity / radiometric | 0.008 µM
Cc1cc(C)nc(NC(=S)N[C@@H](C)c2cccc3ccccc23)c1 | - | - | - | >100 µM
Cc1cncn1CCC(=O)Nc1cccc(O)c1 | - | - | RT activity / nucleotide incorporation | >100 µM
O=c1cccc(O)c(O)c1O | - | - | radiometric | 3.2 µM
N#Cc1cc(Cl)cc(Oc2c(Br)ccc(Cn3c(=O)[nH]c4nnccc43)c2F)c1 | NNRTI-resistant (RT K103N/Y181C) | K103N/Y181C | scintillation proximity / radiometric | 0.004 µM
O=C(CC1(O)C(=O)Nc2ccc(Cl)cc21)c1ccccc1Cl | - | - | RT activity / absorbance | 0.76 µM
CC(C)Cn1cc(C(=O)O)c(=O)c2cc(Br)c(Oc3ccnc(Nc4ccc(C#N)cc4)n3)cc21 | - | - | RT activity / fluorescence | 7.3 µM
O=C(CC1(O)C(=O)Nc2ccc(Br)cc21)c1cccc(Br)c1 | - | - | RT activity / absorbance | 32.37 µM
COc1ccc2nc(NC(=S)N[C@@H](C)c3ccccc3)sc2c1 | - | - | - | >100 µM
Cc1n[nH]c(=O)n1Cc1ccc(Br)c(Oc2cc(Cl)cc(C#N)c2)c1F | NNRTI-resistant (RT K103N/Y181C) | K103N/Y181C | scintillation proximity / radiometric | 0.012 µM
COC(=O)c1cn(C)c2cc(Oc3ccnc(Nc4ccc(C#N)cc4)n3)c(Br)cc2c1=O | - | - | RT activity / fluorescence | 0.59 µM
Cc1cccc(NC(=S)N[C@H](C)c2cccc3ccccc23)n1 | - | - | - | 1.03 µM
Cc1ncc([N+](=O)[O-])n1CCOC(c1ccccc1)c1cnccn1 | - | - | RT activity / nucleotide incorporation | >100 µM
C[C@H](CNC(=S)Nc1ccccn1)c1ccccc1 | - | - | - | 3.5 µM
N#Cc1cc(Cl)cc(Oc2c(Br)ccc(Cn3cc(Cl)c(=O)[nH]c3=O)c2F)c1 | Wild type | - | scintillation proximity / radiometric | 0.004 µM
O=C(CC1(O)C(=O)Nc2ccc(Cl)cc21)c1cccc(Cl)c1 | - | - | RT activity / absorbance | 34.25 µM
C[C@H]1[C@H](O)c2c(c3c(c4c(-c5ccccc5)cc(=O)oc24)OC(C)(C)C=C3)O[C@@H]1C | - | IIIB | scintillation proximity / radiometric | 0.038 µM
Cc1occc1C(=S)Nc1ccc(Cl)c(/C=N/OC(C)(C)C)c1 | RT-Y181I | - | - | 27.8 µM
O=C(CC1(O)C(=O)Nc2ccccc21)c1ccc(F)cc1 | - | - | RT activity / absorbance | 82.61 µM
Cc1cncn1C(C)C(=O)Nc1cccc(O)c1 | - | - | RT activity / nucleotide incorporation | >100 µM
N#Cc1ccc(Nc2nccc(Oc3cc4c(cc3Br)c(=O)c(C(=O)O)cn4C3CC3)n2)cc1 | - | - | RT activity / fluorescence | 10.05 µM
Cc1nc([N+](=O)[O-])cn1CC(=O)CNc1cccc(Cl)c1 | - | - | RT activity / nucleotide incorporation | >100 µM
Cc1cc(S(N)(=O)=O)ccc1NC(=O)COc1ccc(Cl)cc1C(=O)c1cc(Cl)cc(C#N)c1 | RT-Y181C | - | fluorescence | 0.0023 µM
O=c1ccccc(-c2cncnc2)c1O | - | - | radiometric | >1000 µM
O=C(CC1(O)C(=O)Nc2ccc(Cl)cc21)c1cccc([N+](=O)[O-])c1 | - | - | RT activity / absorbance | 58.51 µM
COc1ccc2c(c1)N(C(=O)OC(C)C)[C@@H](CSC)C(=S)N2 | RT-V106A | - | scintillation proximity / radiometric | 0.58 µM
O=C(CC1(O)C(=O)Nc2ccc(Cl)cc21)c1ccccc1 | - | - | RT activity / absorbance | 27.26 µM
N#Cc1cc(Cl)cc(Oc2c(Br)ccc(Cn3c(=O)[nH]c4ncccc43)c2F)c1 | Wild type | - | scintillation proximity / radiometric | 0.006 µM

4 of the rows above, restated:

smiles | changes | strain or isolate | method | result
O=C(CC1(O)C(=O)Nc2ccc(Br)cc21)c1ccccc1 | - | - | RT activity / absorbance | 5.22 µM
O=C(CC1(O)C(=O)Nc2ccc(Cl)cc21)c1ccccc1Cl | - | - | RT activity / absorbance | 0.76 µM
COc1ccc2c(c1)N(C(=O)OC(C)C)[C@@H](CSC)C(=S)N2 | RT-V106A | - | scintillation proximity / radiometric | 0.58 µM
N#Cc1cc(Cl)cc(Oc2c(Br)ccc(Cn3[nH]c(=O)[nH]c3=O)c2F)c1 | Wild type | - | scintillation proximity / radiometric | 0.007 µM